# Experimental data from publication PMC6372279 (eLife, 2019).
# The chains behind the UniProt entries cited, without tags or fusion partners. Residues count along the entry.
# UniProt P06213, 28-758 limits assumed: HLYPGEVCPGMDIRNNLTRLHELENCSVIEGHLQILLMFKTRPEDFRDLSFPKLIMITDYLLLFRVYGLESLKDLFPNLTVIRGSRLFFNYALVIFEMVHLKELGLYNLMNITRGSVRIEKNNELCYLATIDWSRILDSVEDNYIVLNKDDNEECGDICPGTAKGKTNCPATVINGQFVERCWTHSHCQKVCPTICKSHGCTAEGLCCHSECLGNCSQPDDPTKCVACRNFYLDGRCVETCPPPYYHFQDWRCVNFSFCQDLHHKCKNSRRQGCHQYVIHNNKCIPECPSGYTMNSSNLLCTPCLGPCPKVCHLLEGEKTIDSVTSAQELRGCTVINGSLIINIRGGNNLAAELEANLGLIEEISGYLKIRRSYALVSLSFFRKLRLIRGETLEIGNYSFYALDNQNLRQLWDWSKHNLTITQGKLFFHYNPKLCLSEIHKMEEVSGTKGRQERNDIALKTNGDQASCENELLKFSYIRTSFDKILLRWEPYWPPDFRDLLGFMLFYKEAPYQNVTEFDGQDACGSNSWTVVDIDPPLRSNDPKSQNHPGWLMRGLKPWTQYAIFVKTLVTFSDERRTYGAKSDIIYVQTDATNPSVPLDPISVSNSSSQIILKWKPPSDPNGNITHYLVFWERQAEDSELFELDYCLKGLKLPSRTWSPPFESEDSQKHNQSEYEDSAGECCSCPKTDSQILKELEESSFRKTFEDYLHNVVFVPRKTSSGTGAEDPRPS
# UniProt P06213, 763-1382 partner limits assumed: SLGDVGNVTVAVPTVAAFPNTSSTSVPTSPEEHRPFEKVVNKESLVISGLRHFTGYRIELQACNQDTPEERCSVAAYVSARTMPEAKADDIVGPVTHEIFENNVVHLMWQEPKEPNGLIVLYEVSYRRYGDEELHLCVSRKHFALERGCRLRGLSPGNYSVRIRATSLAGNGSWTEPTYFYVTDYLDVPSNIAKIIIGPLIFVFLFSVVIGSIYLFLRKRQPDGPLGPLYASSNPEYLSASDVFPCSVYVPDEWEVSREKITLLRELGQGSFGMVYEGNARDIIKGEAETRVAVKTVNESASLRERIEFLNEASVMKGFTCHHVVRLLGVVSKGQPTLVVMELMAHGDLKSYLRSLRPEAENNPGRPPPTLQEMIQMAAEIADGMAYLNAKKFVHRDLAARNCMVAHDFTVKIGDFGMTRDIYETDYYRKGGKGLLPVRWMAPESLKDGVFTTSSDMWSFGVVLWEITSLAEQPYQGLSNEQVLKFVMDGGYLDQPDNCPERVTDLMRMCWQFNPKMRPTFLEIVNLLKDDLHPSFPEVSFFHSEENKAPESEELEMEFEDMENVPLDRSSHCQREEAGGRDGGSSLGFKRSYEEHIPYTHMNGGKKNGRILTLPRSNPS
# Tests used:
# human IR-B = human IR-B (Homo sapiens, UniProt P06213); assay: hIR-B autophosphorylation (Tyr1150/1151) HTRF assay in NIH 3T3 cells overexpressing human IR-B; type: cell-based; settings: compared to hIns
# [1] = test system: STZ-induced hyperglycemic mice; assay: Reversal of STZ-induced hyperglycemia in mice; type: in vivo, mouse; settings: equivalent to 1 IU/kg body weight, before lowering, mean, n = 3
compound,measurement,setting,value
CC[C@H](C)[C@@H]1NC(=O)[C@H](Cc2ccc(O)cc2)NC(=O)[C@H](CO)NC(=O)[C@H](CC(N)=O)NC(=O)[C@@H]2CCCN2C(=O)[C@H]([C@@H](C)CC)NC(=O)[C@H](CC(C(=O)O)C(=O)O)NC(=O)[C@H](CO)NC(=O)CNC(=O)[C@@H](NC(=O)[C@H](CCCNC(=N)N)NC(=O)[C@H](Cc2ccc(O)cc2)NC(=O)[C@H](CCCCN)NC(=O)[C@@H]2C[C@@H](O)CN2C(=O)[C@@H](NC(=O)[C@H](CC(=O)O)NC(=O)[C@H](CO)NC(=O)[C@@H](N)CC(N)=O)[C@@H](C)O)CSSC[C@@H]2NC(=O)[C@@H](NC(=O)[C@H](Cc3c[nH]cn3)NC(=O)[C@H](CC(C(=O)O)C(=O)O)NC(=O)[C@@H](NC(=O)[C@@H](NC(=O)CN)C(C)C)C(C)C)C[Se][Se]C[C@H](NC(=O)[C@@H]3CCCN3C(=O)[C@H](CCCNC(=N)N)NC(=O)[C@H](Cc3c[nH]cn3)NC2=O)C(=O)N[C@@H](CO)C(=O)N[C@@H](CC(N)=O)C(=O)N[C@@H](C)C(=O)N[C@@H](CCC(=O)O)C(=O)N[C@@H](Cc2ccccc2)C(=O)N[C@@H](CCCCN)C(=O)N[C@@H](CCCCN)C(=O)N[C@@H](Cc2ccccc2)C(=O)N[C@H](C(N)=O)CSSC[C@@H](C(=O)N[C@@H](Cc2ccccc2)C(=O)O)NC(=O)[C@H](CC(C)C)NC(=O)[C@H](CC(=O)O)NC1=O,"times less potent than hIns, hIR-B phosphorylation (Tyr1150/1151)",human IR-B,10 times
same,"Blood glucose, starting value",[1],541.3 ± 52 mg/dL
